## PSTVd loop 15 mutant pool in Nicotiana benthamiana

The measurements come from Wu et al. 2024 (doi:10.1371/journal.ppat.1012142).

The pool varies loop 15 of the PSTVd intermediate strain in the pattern GGAAACCGNNNNNNC; wild type is GGAAACCGCUACUAC (upper and lower strand joined, each 5' to 3', the first 7 letters being the upper strand, closing pairs included).

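A pool of all variants was put on leaves of three Nicotiana benthamiana plants. Samples came from the inoculated region at 5 days, the leaf margin at 10 and upper systemic leaves at 12.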

Numbers give reads per thousand; 0 = not seen among the reads, higher = more abundant.
Each value is the mean of three plants.
"Pool" is the share in the plasmid pool used as inoculum, on the same scale.
The inoculated region was read from the minus strand, the other sites from the plus strand.

{"sequence": "GGAAACCGCGGAAUC", "pool": "0.176", "inoculated region": 0.119, "leaf margin": 0.00742, "systemic leaves": 0}
{"sequence": "GGAAACCGUGAUCGC", "pool": "0.176", "inoculated region": 0.0572, "leaf margin": 0, "systemic leaves": 0.00537}
{"sequence": "GGAAACCGGUACCCC", "pool": "0.224", "inoculated region": 0.0987, "leaf margin": 0.0295, "systemic leaves": 0}
{"sequence": "GGAAACCGCUCUCCC", "pool": "0.160", "inoculated region": 0.376, "leaf margin": 0.00668, "systemic leaves": 0}
{"sequence": "GGAAACCGUUGCGAC", "pool": "0.320", "inoculated region": 0.102, "leaf margin": 0, "systemic leaves": 0}
{"sequence": "GGAAACCGGUACAUC", "pool": "0.256", "inoculated region": 0.126, "leaf margin": 0.0195, "systemic leaves": 0.0107}
{"sequence": "GGAAACCGUACCGUC", "pool": "0.240", "inoculated region": 0.0875, "leaf margin": 0.00668, "systemic leaves": 0}
{"sequence": "GGAAACCGCUAGUGC", "pool": "0.320", "inoculated region": 0.698, "leaf margin": 0.108, "systemic leaves": 0.0610}
{"sequence": "GGAAACCGCCAAUCC", "pool": "0.240", "inoculated region": 0.293, "leaf margin": 0.128, "systemic leaves": 0.0215}
{"sequence": "GGAAACCGGGUUACC", "pool": "0.256", "inoculated region": 0.0725, "leaf margin": 0.0187, "systemic leaves": 0}
{"sequence": "GGAAACCGAAGGUUC", "pool": "0.240", "inoculated region": 0.258, "leaf margin": 0.142, "systemic leaves": 0.00537}
{"sequence": "GGAAACCGGACACAC", "pool": "0.336", "inoculated region": 0.0965, "leaf margin": 0.00668, "systemic leaves": 0}
{"sequence": "GGAAACCGGAAGGUC", "pool": "0.160", "inoculated region": 0.0678, "leaf margin": 0.00539, "systemic leaves": 0}
{"sequence": "GGAAACCGCUAUUUC", "pool": "0.240", "inoculated region": 0.362, "leaf margin": 0.0933, "systemic leaves": 0.0739}
{"sequence": "GGAAACCGACGACGC", "pool": "0.240", "inoculated region": 0.0950, "leaf margin": 0.0195, "systemic leaves": 0.00504}
{"sequence": "GGAAACCGGGACAAC", "pool": "0.336", "inoculated region": 0.0860, "leaf margin": 0, "systemic leaves": 0}
{"sequence": "GGAAACCGAUCGACC", "pool": "0.240", "inoculated region": 0.107, "leaf margin": 0.0108, "systemic leaves": 0}
{"sequence": "GGAAACCGCAAACCC", "pool": "0.240", "inoculated region": 0.111, "leaf margin": 0, "systemic leaves": 0.00504}
{"sequence": "GGAAACCGGUACGUC", "pool": "0.240", "inoculated region": 0.131, "leaf margin": 0.0121, "systemic leaves": 0.00537}
{"sequence": "GGAAACCGUACCUUC", "pool": "0.144", "inoculated region": 0.351, "leaf margin": 0.777, "systemic leaves": 0}
{"sequence": "GGAAACCGGAUUAGC", "pool": "0.192", "inoculated region": 0.112, "leaf margin": 0.0187, "systemic leaves": 0.00537}
{"sequence": "GGAAACCGGUUGAUC", "pool": "0.240", "inoculated region": 0.0987, "leaf margin": 0.0121, "systemic leaves": 0}
{"sequence": "GGAAACCGUAAUAGC", "pool": "0.304", "inoculated region": 0.0950, "leaf margin": 0.0121, "systemic leaves": 0}
{"sequence": "GGAAACCGGCGCGUC", "pool": "0.224", "inoculated region": 0.0586, "leaf margin": 0, "systemic leaves": 0}
{"sequence": "GGAAACCGGUGGAGC", "pool": "0.272", "inoculated region": 0.0731, "leaf margin": 0.0316, "systemic leaves": 0}
{"sequence": "GGAAACCGAAAAGUC", "pool": "0.224", "inoculated region": 0.0669, "leaf margin": 0.00668, "systemic leaves": 0.00537}
{"sequence": "GGAAACCGAGAAGAC", "pool": "0.176", "inoculated region": 0.308, "leaf margin": 0.0241, "systemic leaves": 0}
{"sequence": "GGAAACCGGUCCCGC", "pool": "0.192", "inoculated region": 0.0900, "leaf margin": 0.00539, "systemic leaves": 0}
{"sequence": "GGAAACCGUACAUAC", "pool": "0.240", "inoculated region": 0.246, "leaf margin": 0.116, "systemic leaves": 0.0594}
{"sequence": "GGAAACCGUAUCCUC", "pool": "0.336", "inoculated region": 0.115, "leaf margin": 0.00668, "systemic leaves": 0}
{"sequence": "GGAAACCGCGAAGAC", "pool": "0.288", "inoculated region": 0.0517, "leaf margin": 0.0289, "systemic leaves": 0}
{"sequence": "GGAAACCGGUUAGAC", "pool": "0.240", "inoculated region": 0.0336, "leaf margin": 0.0134, "systemic leaves": 0}
{"sequence": "GGAAACCGAAAAGCC", "pool": "0.304", "inoculated region": 0.0987, "leaf margin": 0.0215, "systemic leaves": 0}
{"sequence": "GGAAACCGCUCUCGC", "pool": "0.176", "inoculated region": 0.125, "leaf margin": 0.00539, "systemic leaves": 0.00760}
{"sequence": "GGAAACCGAUUGGCC", "pool": "0.176", "inoculated region": 0.0579, "leaf margin": 0, "systemic leaves": 0}
{"sequence": "GGAAACCGUCGAGCC", "pool": "0.208", "inoculated region": 0.0923, "leaf margin": 0.00668, "systemic leaves": 0.00537}
{"sequence": "GGAAACCGGAACGAC", "pool": "0.240", "inoculated region": 0.0903, "leaf margin": 0.0316, "systemic leaves": 0}
{"sequence": "GGAAACCGGACACCC", "pool": "0.256", "inoculated region": 0.115, "leaf margin": 0.00742, "systemic leaves": 0.0107}
{"sequence": "GGAAACCGUUGCCGC", "pool": "0.304", "inoculated region": 0.0498, "leaf margin": 0.00539, "systemic leaves": 0}
{"sequence": "GGAAACCGGGAGAAC", "pool": "0.224", "inoculated region": 0.315, "leaf margin": 0.162, "systemic leaves": 0.0278}

3 of these entries, quoted again:

{"sequence": "GGAAACCGGCGCGUC", "pool": "0.224", "inoculated region": 0.0586, "leaf margin": 0, "systemic leaves": 0}
{"sequence": "GGAAACCGAUCGACC", "pool": "0.240", "inoculated region": 0.107, "leaf margin": 0.0108, "systemic leaves": 0}
{"sequence": "GGAAACCGGGAGAAC", "pool": "0.224", "inoculated region": 0.315, "leaf margin": 0.162, "systemic leaves": 0.0278}

The authors trace changes outside the varied positions to PCR and sequencing errors or to mutation in the plant; presence does not show that a variant is infectious alone.
For reference, wild type rose from 33.9 per thousand in the pool to 202, 200, 159 (inoculated region), 724, 746, 710 (leaf margin) and 856, 883, 880 (systemic leaves).
With 43,870-66,106 reads a sample, very low values are single reads.